This passage reports Km results from paper PMC8941942, “Functional and Structural Characterization of Diverse NfsB Chloramphenicol Reductase Enzymes from Human Pathogens” (Microbiology Spectrum, 2022).

One assay concerns Hi Int1 NfsB. Nature of the assay: NADPH oxidation at […] nm, Michaelis-Menten fit. The class given is biochemical, Haemophilus influenzae. Particulars: read-out: Km (μM)^a; apparent; 1 mM NADPH, 1 µM FMN, 50 mM Tris pH 8, ~23°C.
The next assay relates to Hi 12 NfsB. In words: NADPH oxidation at […] nm, Michaelis-Menten fit. The class given is biochemical, Haemophilus influenzae. The note with it: read-out: Km (μM)^a; apparent; 1 mM NADPH, 1 µM FMN, 50 mM Tris pH 8, ~23°C.

Consider `O=C(N[C@H](CO)[C@H](O)c1ccc([N+](=O)[O-])cc1)C(Cl)Cl` [chloramphenicol], for which the values for the Km with Hi Int1 NfsB and with Hi 12 NfsB were 240 µM and 160 µM, respectively.
